We go through one compound from US20160361334A1, “APPLICATION OF BAICALIN IN PREPARATION OF DRUG FOR TREATING RICIN POISONING” (published 2016).

One series concerns Hela cells. The experiment in a line: Protective effects of baicalin on Hela cells against ricin cytotoxicity (lactate dehydrogenase release). Particulars: 72 h, LDH release; for Survival rate (%): Hela cells, 100 pg ricin per well.
The next series concerns yeast-type fungi. The conditions noted are these: cited from earlier work.

In the case of `O=C(O)[C@H]1O[C@@H](Oc2cc3oc(-c4ccccc4)cc(=O)c3c(O)c2O)[C@H](O)[C@@H](O)[C@@H]1O`, the “Survival rate (%)” value with Hela cells (Baicalin 4 μg/ml) was 27.56%; with Hela cells (Baicalin 8 μg/ml) it was 42.18%; in the series on Hela cells (Baicalin 16 μg/ml), 56.89%; with Hela cells (Baicalin 32 μg/ml) it was 77.42%. Moreover, the “Inhibition of cytotoxicity of Hela cells caused by ricin” value with Hela cells (dose-dependent manner) is recorded as “significantly inhibited the cytotoxicity”. Further, in the series with yeast-type fungi, the “minimal inhibitory concentration (MIC)” value is 70 to 100 µg/mL.
